Pooled drug test results. Numbers come from NIAID ChemDB, via PubChem.

All rows: tests in culture; agent: Mycobacterium aurum; measure: MIC

Lines come from different laboratories, so protocols vary. An empty or dashed field is not shown.

smiles | strain | changes | method | result
C=C1C2CC[C@H](C=O)C(O)(C=O)[C@@]2(C)CC[C@@H]1C | - | - | - | 32 µg/mL
O=C(O)c1cn(C2CC2)c2cc(N3CCNCC3)c(F)cc2c1=O | SB66 | - | broth dilution / turbidity | 0.02 µg/mL
COc1nc2ccc(Br)cc2cc1[C@@H](c1ccccc1)[C@@](O)(CCN(C)C)c1cccc2ccccc12 | - | T125 insertion | resazurin | 0.04 µg/mL
CC(C)(C)n1cc(C(=O)O)c(=O)c2cc(F)c(N3CCC(N)C3)nc21 | ATCC23366 | - | - | ≤0.03 µg/mL
NNC(=O)c1ccncc1 | - | - | - | 2 µg/mL
CO[C@@H]1C[C@@H](C[C@H]2CC[C@H](C)[C@H]([C@@H](C)C(=O)O)O2)O[C@]2(O[C@](C)([C@H]3CC[C@@](C)([C@@H]4O[C@@H]([C@H]5O[C@@](O)(CO)[C@H](C)C[C@@H]5C)C[C@@H]4C)O3)C[C@H]2C)[C@@H]1C | - | - | resazurin | 0.16 µg/mL
CN[C@@H]1[C@H](O[C@H]2[C@H](O[C@H]3[C@H](O)[C@@H](O)[C@H](N=C(N)N)[C@@H](O)[C@@H]3N=C(N)N)O[C@@H](C)[C@]2(O)C=O)O[C@@H](CO)[C@H](O)[C@H]1O | A+ | - | - | 0.25 µg/mL
CC1(C)CCC[C@]2(C)[C@H]3COC(=O)C3=CC[C@@H]12 | - | - | - | >128 µg/mL
Cn1c2c3ccccc3nc-2cc2ccccc21 | - | - | - | 2 µg/mL
CCC1CN(c2c(F)cc3c(=O)c(C(=O)O)cn(C4CC4)c3c2OC)CCN1 | ATCC23366 | - | - | 0.06 µg/mL
CC1(C)CCC[C@@]2(C)[C@H]1[C@@H](O)C=C(C=O)[C@]2(O)C=O | - | - | - | >128 µg/mL
CCN1CCN(c2c(F)cc3c(=O)c(C(=O)O)cn(C4CC4)c3c2OC)CC1 | ATCC23366 | - | - | 0.06 µg/mL
CO[C@H]1/C=C/O[C@@]2(C)Oc3c(C)c(O)c4c(O)c(c(/C=N/N5CCN(C)CC5)c(O)c4c3C2=O)NC(=O)/C(C)=C\C=C\[C@H](C)[C@H](O)[C@@H](C)[C@@H](O)[C@@H](C)[C@H](OC(C)=O)[C@@H]1C | A+ | - | - | 2 µg/mL
CC1CN(c2cc3c(cc2F)c(=O)c(C(=O)O)cn3C(C)(C)C)CCN1 | ATCC23366 | - | - | 0.06 µg/mL
CC(=O)O[C@@H]1[C@@H](O)C2=C(C(=O)OC2)[C@@]2(C)CCCC(C)(C)[C@H]12 | - | - | - | >128 µg/mL

For reference, 2 entries again:

smiles,strain,changes,method,result
Cn1c2c3ccccc3nc-2cc2ccccc21,-,-,-,2 µg/mL
COc1nc2ccc(Br)cc2cc1[C@@H](c1ccccc1)[C@@](O)(CCN(C)C)c1cccc2ccccc12,-,T125 insertion,resazurin,0.04 µg/mL